Measured values from several laboratories, pooled; numbers as filed in NIAID ChemDB.

Common to all: tests on isolated targets; agent: Herpes simplex virus 2; target: Thymidine kinase

ICn: concentration for n% inhibition.

smiles	read-out	strain or isolate	result
Cc1cn([C@H]2C[C@H](O)[C@@H](CNS(=O)(=O)c3ccc(NS(=O)(=O)O)cc3)O2)c(=O)[nH]c1=O	IC50		>200 µM
O=c1[nH]c(=O)n([C@@H]2O[C@H](CO)[C@@H](O)[C@@H]2F)cc1/C=C/I	IC50	G	>200 µM
CCc1cn([C@H]2C[C@H](O)[C@@H](COS(C)(=O)=O)O2)c(=O)[nH]c1=O	IC50		4.8 µM
C/C=C/c1cn([C@H]2C[C@H](O)[C@@H](CO)O2)c(=O)[nH]c1=O	Ki		6.2 µM
Nc1nc(=O)n([C@@H]2O[C@H](CO)[C@@H](O)[C@@H]2F)cc1/C=C/C(=O)O	IC50	G	>200 µM
CS(=O)(=O)NC[C@H]1O[C@@H](n2cc(I)c(=O)[nH]c2=O)C[C@@H]1O	IC50		35 µM
CCc1cn([C@H]2C[C@H](O)[C@@H](CNC(=O)CCc3ccccc3)O2)c(=O)[nH]c1=O	IC50		0.8 µM
CC(C)C(=O)NC[C@H]1O[C@@H](n2cc(I)c(=O)[nH]c2=O)C[C@@H]1O	IC50		7 µM
O=c1[nH]c(=O)n([C@@H]2C[C@@H](O)[C@H](CO)O2)cc1C(F)(F)F	IC50		14.5 µM
CCc1cn([C@H]2C[C@H](O)[C@@H](COP(=O)(O)OC(C)C)O2)c(=O)[nH]c1=O	IC50		40 µM
Nc1nc(=O)n([C@@H]2O[C@H](CO)[C@@H](O)[C@@H]2F)cc1/C=C/I	IC50	G	>200 µM
C#C[C@H]1O[C@@H](n2cc(C)c(=O)[nH]c2=O)C[C@@H]1O	IC50	333	100 µM
Cc1cn([C@H]2C[C@H](O)[C@@H](CNS(=O)(=O)C(F)(F)F)O2)c(=O)[nH]c1=O	IC50		>200 µM
CCc1cn([C@H]2C[C@H](O)[C@@H](CO)O2)c(=O)[nH]c1=O	IC50		0.51 µM
O=c1[nH]c(=O)n([C@@H]2O[C@H](CO)[C@@H](O)[C@@H]2F)cc1/C=C/Br	IC50	G	>200 µM
CCCCCCCCOP(=O)(O)OC[C@H]1O[C@@H](n2cc(CC)c(=O)[nH]c2=O)C[C@@H]1O	IC50		1.5 µM
CC(=O)NC[C@H]1O[C@@H](n2cc(C)c(=O)[nH]c2=O)C[C@@H]1O	IC50		~200 µM
CCc1cn([C@@H]2O[C@H](CO)[C@@H](O)[C@@H]2F)c(=O)nc1N	IC50	G	>200 µM
CCc1cn([C@H]2C[C@H](O)[C@@H](CNC(=O)Cc3ccccc3)O2)c(=O)[nH]c1=O	IC50		0.3 µM

2 of the rows above, restated:

smiles	read-out	strain or isolate	result
CCc1cn([C@H]2C[C@H](O)[C@@H](CO)O2)c(=O)[nH]c1=O	IC50		0.51 µM
CCc1cn([C@@H]2O[C@H](CO)[C@@H](O)[C@@H]2F)c(=O)nc1N	IC50	G	>200 µM

An empty or dashed field is not shown. Conditions beyond the fields shown may differ between rows.